{"source": "patent US5780433A", "about": "(priority 1996, dated 1998)", "test_system": "nicotine-stimulated [3H]-dopamine release from rat striatal synaptosomes", "test": "nicotine-stimulated [3H]-dopamine release, synaptosomal superfusion assay", "format": "cell-based", "conditions": "3 μM nicotine, antagonist concentration not stated", "data": [{"substance": "α-conotoxin MI", "values": [{"measurement": "block of nicotine-stimulated dopamine release (words)", "value": "do not block"}, {"measurement": "block of nicotine-stimulated dopamine release (words)", "setting": "listed as α-Conotoxin MI", "value": "no effect"}]}]}
